The source of these data is article PMC6967409 (Frontiers in Chemistry, 2020).

The test system of data set [1] is HepG2 cells. Description: HepG2 cytotoxicity bioluminescence assay (CellTiterGlo, ATP). It counts as cell-based, human. Conditions: selectivity index. As to the method:
Briefly, HepG2-CD81 cells were seeded into 1,536 well plates containing 50 nL of test and control compounds diluted into DMSO. […] Next, 2 μL of luciferin reagent (Promega BrightGlo) was added to each well and luciferase activity was detected using a Perkin Elmer Envision plate reader. […] In parallel, plates were processed without sporozoites for HepG2 toxicity measurements.
In continuation of the transmission blocking theme, it is important to establish activities against liver stage parasites. […] This assay uses ultra-high-throughput screening methods optimized for a 1536-well format and a HepG2 human hepatoma cell line. […] To establish selectivity of the compounds for the parasite in the liver stage of infection, cytotoxicity was determined by measuring bioluminescence from the reaction between free ATP of compound-treated, uninfected hepatocytes and a luciferase reporter system.
Background: In ATP-based viability assays light output follows the ATP content of the culture.

Data set [2] relates to HepG2 cells. The data set is described as follows: Cytotoxicity, Cytoselect LDH cytotoxicity assay kit. It counts as cell-based, human. To be noted: selectivity index. As to the method: (§1) Cytotoxicity (EC50) was determined against Chinese hamster ovarian (CHO) using a 3-(4,5-dimethylthiazol-2-yl)-2,5-diphenyltetrazolium bromide (MTT) assay and hepatocellular carcinoma cells (HepG2) using the Cytoselect LDH cytotoxicity assay kit (Cell Biolabs).

Data set [3] relates to Chinese hamster ovarian (CHO) cells. The data set is described as follows: Cytotoxicity, MTT assay. Format: cell-based. To be noted: selectivity index. As to the method:
as §1
A general note: Tetrazolium dyes change colour on reduction, which living cells bring about.

For data set [4], the system named is P. falciparum NF54 late stage gametocytes (>90% stage IV and V). Details: method as in Coertzen et al. (2018). To be noted: ref Coertzen et al. (2018); cited from earlier work.

The structures appear in SMILES notation.

In the case of `O=C1C(O)=C([C@H]2CC[C@H](c3ccc(Cl)cc3)CC2)C(=O)c2ccccc21` [Atovaquone], the “SI (EC50 HepG2/IC50 P. berghei sporozoites)” value with HepG2 cells [1] was over 100.

In the case of `CCCCS(=O)(=O)N1CCN([C@@H]2O[C@@H]3O[C@@]4(C)CC[C@H]5[C@H](C)CC[C@@H]([C@H]2C)[C@@]35OO4)CC1` [Compound 13], the “SI (EC50 HepG2/IC50 NF54)” value with HepG2 cells [2] turned out to be 1007.4. Take `CC(=O)Nc1ccc(S(=O)(=O)N2CCN([C@@H]3O[C@@H]4O[C@@]5(C)CC[C@H]6[C@H](C)CC[C@@H]([C@H]3C)[C@@]46OO5)CC2)cc1` [Compound 15]: the “SI (EC50 HepG2/IC50 NF54)” value with HepG2 cells [2] was found to be 723. As for `C[C@H]1[C@H](N2CCN(S(=O)(=O)c3cccc(C(F)(F)F)c3)CC2)O[C@@H]2O[C@@]3(C)CC[C@H]4[C@H](C)CC[C@@H]1[C@@]24OO3` [Compound 16], the “SI (EC50 HepG2/IC50 NF54)” value with HepG2 cells [2] was 126.7. `C[C@H]1[C@H](N2CCN(S(=O)(=O)c3cccc(F)c3)CC2)O[C@@H]2O[C@@]3(C)CC[C@H]4[C@H](C)CC[C@@H]1[C@@]24OO3` [Compound 17]: in data set [3], the “SI (EC50 CHO/IC50 NF54 proliferative assay)” value was 6,322. Further, in the data set on HepG2 cells [2], the “SI (EC50 HepG2/IC50 NF54)” value is on record as 205.5. As for `C[C@H]1[C@H](N2CCN(S(=O)(=O)c3ccc(C(F)(F)F)cc3)CC2)O[C@@H]2O[C@@]3(C)CC[C@H]4[C@H](C)CC[C@@H]1[C@@]24OO3` [Compound 18], the “SI (EC50 CHO/IC50 NF54 proliferative assay)” value in data set [3] is 11,071. Also, the “SI (EC50 HepG2/IC50 NF54)” value in the data set with HepG2 cells [2] was 15.63. As for `C[C@H]1[C@H](N2CCN(S(=O)(=O)c3ccc(F)cc3)CC2)O[C@@H]2O[C@@]3(C)CC[C@H]4[C@H](C)CC[C@@H]1[C@@]24OO3` [Compound 19], the “SI (EC50 HepG2/IC50 NF54)” value in the data set with HepG2 cells [2] stood at 164.1. Turning to `C[C@H]1[C@H](N2CCN(C(=O)Nc3ccc(C(C)(C)C)cc3)CC2)O[C@@H]2O[C@@]3(C)CC[C@H]4[C@H](C)CC[C@@H]1[C@@]24OO3` [Compound 22], the “SI (EC50 CHO/IC50 NF54 proliferative assay)” value in data set [3] was 1,561. In addition, in the data set with HepG2 cells [2], the “SI (EC50 HepG2/IC50 NF54)” value amounted to 329.4.

For the compound `C[C@H]1[C@H](N2CCN(C(=O)Nc3ccc(C(F)(F)F)cc3)CC2)O[C@@H]2O[C@@]3(C)CC[C@H]4[C@H](C)CC[C@@H]1[C@@]24OO3` [Compound 23], the “SI (EC50 CHO/IC50 NF54 proliferative assay)” value in data set [3] is 119,354. Besides, the “SI (EC50 HepG2/IC50 NF54)” value in the data set with HepG2 cells [2] stood at 292.3. In the data set on HepG2 cells [1], the “SI (EC50 HepG2/IC50 P. berghei sporozoites)” value is on record as 66.0.

For `C[C@H]1[C@H](N2CCN(C(=O)Nc3ccc(F)cc3)CC2)O[C@@H]2O[C@@]3(C)CC[C@H]4[C@H](C)CC[C@@H]1[C@@]24OO3` [Compound 24], the “SI (EC50 CHO/IC50 NF54 proliferative assay)” value in data set [3] was 156,923. Besides, in the data set with HepG2 cells [1], the “SI (EC50 HepG2/IC50 P. berghei sporozoites)” value amounted to 48.9. As to `C[C@H]1[C@H](NS(=O)(=O)N2CCN(c3ccccn3)CC2)O[C@@H]2O[C@@]3(C)CC[C@H]4[C@H](C)CC[C@@H]1[C@@]24OO3` [Compound 29], the “SI (EC50 HepG2/IC50 NF54)” value in the data set with HepG2 cells [2] was found to be 40.1.

In the case of `C[C@H]1[C@H](NS(=O)(=O)N2CCN(c3ccc(C(F)(F)F)cn3)CC2)O[C@@H]2O[C@@]3(C)CC[C@H]4[C@H](C)CC[C@@H]1[C@@]24OO3` [Compound 30], in data set [3], the “SI (EC50 CHO/IC50 NF54 proliferative assay)” value was 10,393. Besides, the “SI (EC50 HepG2/IC50 NF54)” value with HepG2 cells [2] is 94.3. In the case of `CC1CCC2C(C)C(N3CCNCC3)OC3OC4(C)CCC1C32OO4` (stereo not shown) [DHA-piperazine 9], in data set [4], the “Fold change preference ratio: EG to LG” value was 0.47 and the “Fold change preference ratio: LG to EG” value was 2.1. `COc1ccc(C[C@H](N)C(=O)N[C@H]2[C@@H](O)[C@H](n3cnc4c(N(C)C)ncnc43)O[C@@H]2CO)cc1` [Puromycin]: the “SI (EC50 HepG2/IC50 P. berghei sporozoites)” value in the data set on HepG2 cells [1] stood at 5.15.
